The values that follow come from article PMC10958470 (Virus Research, 2024).

pIC50: −log10 of the molar value. Where two headings read alike, the source gives them in different places.

This assay addresses SARS-CoV-2 helicase (nsp13) (Severe acute respiratory syndrome coronavirus 2, UniProt P0DTD1). The class given is biochemical.

Usually pIC50 stands for the IC50 on a negative log10 scale, so that one unit is a factor of ten. As to FPA-124, the negative-log IC50 (pIC50) (read-out: DTT Helicase IC50) was 4.77 and the pIC50 (read-out: Helicase IC50) is 6.89.
